Reference: US11820973B2, “Methods and system for interfering with viability of bacteria and related compounds and compositions” (CALIFORNIA INSTITUTE OF TECHNOLOGY, priority 2011, dated 2023)

System: P. aeruginosa PA14 wild type and feoB::MAR2xT7 mutant
Experiment: Planktonic growth in 1% TSB-based biofilm medium
Conditions: amounts used in the biofilm experiments, batch cultures, 37° C.

B1: conalbumin: Fe(III)-binding protein of the transferrin family, an Fe(III) chelator; substantially iron-free, from Sigma-Aldrich (protein, UniProt P02789 20-705, looked up)
Ovotransferrin: APPKSVIRWCTISSPEEKKCNNLRDLTQQERISLTCVQKATYLDCIKAIANNEADAISLDGGQAFEAGLAPYKLKPIAAEVYEHTEGSTTSYYAVAVVKKGTEFTVNDLQGKTSCHTGLGRSAGWNIPIGTLLHRGAIEWEGIESGSVEQAVAKFFSASCVPGATIEQKLCRQCKGDPKTKCARNAPYSGYSGAFHCLKDGKGDVAFVKHTTVNENAPDQKDEYELLCLDGSRQPVDNYKTCNWARVAAHAVVARDDNKVEDIWSFLSKAQSDFGVDTKSDFHLFGPPGKKDPVLKDLLFKDSAIMLKRVPSLMDSQLYLGFEYYSAIQSMRKDQLTPSPRENRIQWCAVGKDEKSKCDRWSVVSNGDVECTVVDETKDCIIKIMKGEADAVALDGGLVYTAGVCGLVPVMAERYDDESQCSKTDERPASYFAVAVARKDSNVNWNNLKGKKSCHTAVGRTAGWVIPMGLIHNRTGTCNFDEYFSEGCAPGSPPNSRLCQLCQGSGGIPPEKCVASSHEKYFGYTGALRCLVEKGDVAFIQHSTVEENTGGKNKADWAKNLQMDDFELLCTDGRRANVMDYRECNLAEVPTHAVVVRPEKANKIRDLLERQEKRFGVNGSEKSKFMMFESQNKDLLFKDLTKCLFKVREGTTYKEFLGDKFYTVISSLKTCNPSDILQMCSFLEGK
modifications: iron-free
notes: substantially iron-free, from Sigma-Aldrich
- Effect on planktonic growth: had no effect on the growth of either strain
